Compound potency records, mixed from different reports. Data source: NIAID ChemDB in PubChem.

Shared fields: tests in culture; species: HIV-1; read-out: fold resistance

Rows are shuffled and stem from different studies. Fold resistance has wild type as its base. An empty or dashed field is not shown.

SMILES,mutations,method,cells,strain or isolate,result
CCC(C)Nc1nc(C(C)c2c(F)cccc2F)cc(=O)[nH]1,RT-Y181C,cytopathic effect / MTT,MT-4,,35
C[C@H](COc1cc(N)nc(N)n1)OCP(=O)(O)O,RT-K65R S68G T69I V75T Q151M,syncytia,CEM,Clinical isolate DE434.4,≥10.8
O=C(Oc1nsnc1-c1c(Cl)cccc1Cl)N1CCCCC1,RT-Y181C,cytopathic effect / MTT,MT-4,IIIB-R (RT-Y181C),>230
CCc1c(Sc2ccccn2)n(COCc2ccccc2)c(=O)[nH]c1=O,RT-D67N K70R T215Y K219Q,cytopathic effect / XTT,CEM + CEM-SS,4xAZT(RT-D67N K70R T215Y K219Q),0.444
N#Cc1ccc(Nc2nc(Cc3c(Cl)cccc3Cl)nc(NO)n2)cc1,RT-K103N Y181C,cytopathic effect / MTT,MT-4,NNRTI-resistant (RT K103N Y181C),176.5
Nc1ccn([C@H]2CC[C@@H](CO)O2)c(=O)n1,RT-D67N T69D L210W T215Y,plaque count,HELA-CD4+,JF20 (RT D67N T69D L210W T215Y),3.6
COC(=O)c1cc2c(c(OC)c1-c1ccc(N(C)C)cc1)OCO2,Y181C,antigen,C8166,NL4-3,45
Fc1ccccc1CCNC(=S)Nc1ccc(Br)cn1,RT-Y181C K103N,p24,PBMC,NNRTI-resistant (RT Y181C K103N) A17V,41000
O=C1c2ccccc2C(=O)N1CCOC(=S)N(C(=O)c1cccs1)c1ccc(Cl)cc1,RT-K103N Y181C,cytopathic effect / MTT,MT-4,A17,>12500
C[C@H](Cn1cnc2c(N)ncnc21)OCP(=O)(O)O,RT-K65R S68G T69I V75T Q151M,syncytia,CEM,Clinical isolate DE434.4,101.2
Cc1cn([C@@H]2O[C@H](CO[Si](C)(C)C(C)(C)C)C3(OS(=O)(=O)C(I)=C3N)[C@H]2O[Si](C)(C)C(C)(C)C)c(=O)[nH]c1=O,RT-E138K,cytopathic effect,CEM,TSAO-m3T-resistant (RT E138K),>33.3
Cc1cc(Br)cc(S(=O)(=O)c2cccc(N)c2C#N)c1,RT-V106A,β-galactosidase,HeLa + HELA CD4+,,0.218
CC(C)CN(C[C@@H](O)[C@H](Cc1ccccc1)NC(=O)[C@H](CC(N)=O)NC(=O)c1ccc2ccccc2n1)C(=O)NC(C)(C)C,PR-A71T V82A,,,BMS-186318-resistant (PR A71T V82A),2.08
Cc1cn([C@H]2C=C[C@@H](CO)O2)c(=O)[nH]c1=O,RT-F77L F116Y Q151M,cytopathic effect,MT-4,FO-08.96 (HXB2 RT F77L F116Y Q151M),>40
CC(=O)Oc1ccc(/C=C/C(=O)O[C@@H](C(=O)O)[C@@H](OC(=O)/C=C/c2ccc(OC(C)=O)c(OC(C)=O)c2)C(=O)O)cc1OC(C)=O,AMD2763-resistant,,MT-4,NL4-3,>9.25
Cc1csc(NC(=S)NC[C@H](C)c2ccccc2)n1,RT-Y181C K103N,p24,PBMC,NNRTI-resistant (RT Y181C K103N) A17V,20
CCc1cc(CCc2nc3ccccc3o2)c(=S)[nH]c1C,RT-K103N Y181C,p24,H9,A17,250
Nc1ccn([C@H]2CC[C@@H](CO)O2)c(=O)n1,RT-T215Y K219Q,p24,PBMC,,1.5
CC1=C(N)C2(OS1(=O)=O)[C@@H](CO[Si](C)(C)C(C)(C)C)O[C@@H](n1cc(C)c(=O)n(C)c1=O)[C@@H]2O[Si](C)(C)C(C)(C)C,RT-E138K,cytopathic effect,CEM,TSAO-m3T-resistant (RT E138K),>227
CC(C)Nc1cccnc1N1CCN(C(=O)c2cc3cc(NS(C)(=O)=O)ccc3[nH]2)CC1,RT-V106A,,PBMC,RT-MDR(RT-V106A),44.4
c1cc(CN2CCCNCCNCCCNCC2)ccc1CN1CCCNCCNCCCNCC1,D-CA-resistant,cytopathic effect / MTT,MT-4,NL4-3,2
O=C(NCc1ccc(F)cc1)c1nc(N2CCCCS2(=O)=O)c2cccnc2c1O,INTG-N155S,p24,,,9
Cc1cc(O)cc(S(=O)(=O)c2cccc(N)c2C#N)c1,RT-E138K,β-galactosidase,HeLa + HELA CD4+,,1.27
CN(C)C(=O)Oc1nsnc1-c1ccccc1Cl,RT-Y181C,cytopathic effect / MTT,MT-4,IIIB-R (RT-Y181C),>368
O=c1[nH]cnc2c1ncn2[C@H]1CC[C@@H](CO)O1,RT-M41L T215Y,plaque count,HT4 + HT4 LacZ-1,HXB2,1.14
CC(C)Nc1cccnc1N1CCN(C(=O)c2cc3ccccc3[nH]2)CC1,RT-G190E,syncytia,CEM,MN-QUIN(RT-G190E),110
S=C(NCCC1=CCCCC1)Nc1ccc(Cl)cn1,RT-V106A,,PBMC,RT-MDR(RT-V106A),0.333
CN1C(=O)N(Cc2ccccc2)S(=O)(=O)c2cscc21,RT-Y181C,syncytia,CEM,,>141
CC(C)(c1ncc(-c2ccc(Cl)cc2)o1)N1CCN(C[C@@H](O)C[C@@H](Cc2nnco2)C(=O)N[C@H]2c3ccccc3OC[C@H]2O)[C@H](C(=O)NCC(F)(F)F)C1,PR-L10I N37S R41K M46I I54V I62V L63P A71V V77I V82A L90M I93L,p24,MT-4,Q-60 Clinical isolate,0.248
O=C1c2ccccc2C(=O)N1CCOC(=S)N(C(=O)c1ccco1)c1ccc(Cl)cc1,RT-Y181C,cytopathic effect / MTT,MT-4,N119 nevirapine-resistant (RT Y181C),>14300
Nc1cc(OCCOCP(=O)(O)O)nc(N)n1,RT-M41L D67N V118I M184V L210W T215Y,syncytia,CEM,Clinical isolate C20,4.18
CC(C)(C)NC(=O)[C@@H]1C[C@@H]2CCCC[C@@H]2CN1C[C@@H](O)[C@H](Cc1ccccc1)NC(=O)[C@H](CC(N)=O)NC(=O)c1ccc2ccccc2n1,PR-L10R L63P,p24,MT-4,NL4-3,1
Cc1ccc(NC(=S)N[C@H](C)c2cccc3ccccc23)nc1,RT-Y181C K103N,p24,PBMC,NNRTI-resistant (RT Y181C K103N) A17V,236
CC(C)Nc1cccnc1N1CCN(C(=O)c2cc3cc(NS(C)(=O)=O)ccc3[nH]2)CC1,RT-K70R,cytopathic effect,MT-4,DI-06.92 (HXB2 RT-K70R),1
Nc1nc2c(ncn2[C@H]2CO[C@@H](CO)O2)c(=O)[nH]1,RT-V75M M184V,,,RT-75M RT-184V,0.3
Cc1cc(S(N)(=O)=O)ccc1NC(=O)COc1ccc(Cl)cc1C(=O)c1cc(Cl)cc(C#N)c1,RT-K103N G190A,β-galactosidase,MAGI,NNRTI-resistant (RT K103N G190A),7.88
Cc1cn([C@H]2C[C@H](N=[N+]=[N-])[C@@H](CO)O2)c(=O)[nH]c1=O,RT-L100I,cytopathic effect / XTT,CEM + CEM-SS,NL4-3,3
C[C@H](CNC(=S)Nc1ccc(Cl)cn1)c1ccccc1,RT-Y181C K103N,p24,PBMC,NNRTI-resistant (RT Y181C K103N) A17V,>2631
CC(C)(O)c1cccc(CN2C(=O)N(Cc3cccc(C(C)(C)O)c3)[C@H](Cc3ccccc3)[C@H](O)[C@@H](O)[C@H]2Cc2ccccc2)c1,PR-184V,p24,MT-2/MT-4 + MT-2,HXB2,3.25
Cc1ccnc2c1NC(=O)c1cccnc1N2C1CC1,RT-K103N Y181C,,PBMC,A17,>2940
CC(c1cc(=O)[nH]c(SC2CCCC2)n1)c1c(F)cccc1F,RT-Y181C,cytopathic effect / MTT,MT-4,,50
CN(C)C(=O)Oc1nsnc1-c1cccc(Cl)c1Cl,RT-Y181C,cytopathic effect / MTT,MT-4,IIIB-R (RT-Y181C),>135
C=C(C)OC(=O)N1c2cc(Cl)ccc2NC(=S)C1(C)C,RT-K103N,syncytia,CEM,TIBO-2(RT-K103N),12.9
CC(C)(c1ncc(-c2ccc(F)cc2)o1)N1CCN(C[C@@H](O)C[C@@H](Cc2nnc(-c3ccccc3)o2)C(=O)N[C@H]2c3ccccc3OC[C@H]2O)[C@H](C(=O)NCC(F)(F)F)C1,PR-L10I M36I N37D M46I R57K L63P A71V G73S I84V L90M I93L,p24,MT-4,V-18 Clinical isolate,≥7.875
Cc1cn([C@H]2C[C@H](N=[N+]=[N-])[C@@H](CO)O2)c(=O)[nH]c1=O,RT-Y181C,RT activity,CEM + CEM-SS,N119 nevirapine-resistant (RT Y181C),2
Nc1ncnc2c1ncn2CCOCP(=O)(O)O,RT-M41L D67N V118I M184V L210W T215Y,syncytia,CEM,Clinical isolate C20,16.6
O=c1[nH]cnc2c1ncn2[C@H]1CC[C@@H](CO)O1,RT-M41L A62V S68N G112S M184V,luciferase,HeLa,Recombinant,0.3
CC(C)CN(C[C@@H](O)[C@H](Cc1ccccc1)NC(=O)[C@H](CC(N)=O)NC(=O)c1ccc2ccccc2n1)C(=O)NC(C)(C)C,PR-M46I L63P V82T I84V,p24,MT-4,NL4-3,7.5
Nc1nc2c(ncn2[C@H]2CC[C@@H](CO)O2)c(=O)[nH]1,RT-E138K,,CEM,TSAO-m3T-resistant (RT E138K),0.7
CC(c1cc(=O)[nH]c(NC2CCCC2)n1)c1c(F)cccc1F,RT-Y181C,cytopathic effect / MTT,MT-4,,25
CCc1cc(CCc2nc3c(Cl)ccc(Cl)c3o2)c(=S)[nH]c1C,RT-K103N Y181C,p24,H9,A17,8
Cc1ccc(NC(=S)NC[C@H](C)c2ccccc2)nc1,RT-Y181C,p24,PBMC,NNRTI-resistant (RT Y181C) A17,360
Cc1cn([C@@H]2O[C@H](CO[Si](C)(C)C(C)(C)C)C3(OS(=O)(=O)C=C3N)[C@H]2O[Si](C)(C)C(C)(C)C)c(=O)n(C)c1=O,RT-V106A,syncytia,CEM,Quin-0.02(RT-V106A),27.5
Cc1cn([C@@H]2O[C@H](CO[Si](C)(C)C(C)(C)C)C3(OS(=O)(=O)C=C3N)[C@H]2O[Si](C)(C)C(C)(C)C)c(=O)n(C)c1=O,RT-E138K,,CEM,TSAO-m3T-resistant (RT E138K),>1600
O=c1[nH]cnc2c1ncn2[C@H]1CC[C@@H](CO)O1,RT-A62V S68G T69D V75I F77L F116Y Q151M,cytopathic effect,MT-4,BI-12.96 (HXB2(RT-A62V S68G T69D V75I F77L F116Y Q151M)),>16.2
COc1cc(C(F)(F)F)cc(S(=O)(=O)c2cccc(N)c2C#N)c1,RT-L100I K103N,β-galactosidase,HeLa + HELA CD4+,,1360
O=C1c2ccccc2C(=O)N1CCOC(=S)N(C(=O)c1ccc(Cl)cc1)c1ccc(Cl)cc1,RT-K103N Y181C,cytopathic effect / MTT,MT-4,A17,>4000
CCN(CC)C(=O)Oc1nsnc1-c1c(Cl)cccc1Cl,RT-Y181C,cytopathic effect / MTT,MT-4,IIIB-R (RT-Y181C),37.6
Cc1ccccc1Cc1cccc(C(=O)CC(=O)C(=O)O)c1,INTG-S153Y N155S,p24,,,70
O=C1c2ccccc2C(=O)N1CCOC(=S)N(C(=O)c1ccccc1)c1ccc(Cl)cc1,RT-K103N Y181C,cytopathic effect / MTT,MT-4,A17,>1000
Cc1cn([C@H]2C[C@H](N=[N+]=[N-])[C@@H](CO)O2)c(=O)[nH]c1=O,RT-M41L E44D D67N T69D V118I M184V L210W T215Y,luciferase,HeLa,NRTI resistant,54.7
CC(C)(c1ncc(-c2ccc(F)cc2)o1)N1CCN(C[C@@H](O)C[C@@H](Cc2nnco2)C(=O)N[C@H]2c3ccccc3OC[C@H]2O)[C@H](C(=O)NCC(F)(F)F)C1,PR-L10I M46I I54V Q58E L63P I64V V77I V82F I84V L90M I93L,p24,MT-4,K-60 Clinical isolate,1
Cn1c2ccccc2c2c1cc(C#N)c(=O)n2-c1ccc([N+](=O)[O-])cc1,RT-K65R,luciferase,HeLa,NRTI resistant,0.2
COC(=O)N[C@@H](Cc1c[nH]c2ccccc12)C(=O)NCCCC[C@@H](CO)N(CC(C)C)S(=O)(=O)c1ccc(N)cc1,SQV-resistant (PR G48V L90M),cytopathic effect / MTT,MT-4,NL4-3,2.6

4 of the rows above, restated:

SMILES	mutations	method	cells	strain or isolate	result
Cc1cc(S(N)(=O)=O)ccc1NC(=O)COc1ccc(Cl)cc1C(=O)c1cc(Cl)cc(C#N)c1	RT-K103N G190A	β-galactosidase	MAGI	NNRTI-resistant (RT K103N G190A)	7.88
CC1=C(N)C2(OS1(=O)=O)[C@@H](CO[Si](C)(C)C(C)(C)C)O[C@@H](n1cc(C)c(=O)n(C)c1=O)[C@@H]2O[Si](C)(C)C(C)(C)C	RT-E138K	cytopathic effect	CEM	TSAO-m3T-resistant (RT E138K)	>227
O=c1[nH]cnc2c1ncn2[C@H]1CC[C@@H](CO)O1	RT-M41L T215Y	plaque count	HT4 + HT4 LacZ-1	HXB2	1.14
CC(=O)Oc1ccc(/C=C/C(=O)O[C@@H](C(=O)O)[C@@H](OC(=O)/C=C/c2ccc(OC(C)=O)c(OC(C)=O)c2)C(=O)O)cc1OC(C)=O	AMD2763-resistant		MT-4	NL4-3	>9.25